In publication PMC12607321, “Sumac Polyphenols as Pan-Herpesvirus Inhibitors” (International Journal of Molecular Sciences, 2025):
Like-named read-outs stand apart in the source and are kept apart here.

Assays:
HSV-1L2 = assay: Antiviral activity in Vero E6 cells infected with HSV-1 (cytopathic effect); assay type: cell-based
HSV-2BH = assay: Antiviral activity in Vero E6 cells infected with HSV-2 (cytopathic effect); assay type: cell-based
HIV-1 (HIVIIIB) = assay type: cell-based; details: CC50/IC50, HIV-1 in MT-4 cells
EBVB95-8 = assay: Inhibition of EBV replication in B95-8 cells (EBV genomic DNA, real-time PCR); assay type: cell-based, Epstein–Barr virus
[1] = system: influenza A virus/California/07/2009 (H1N1) pdm; assay type: cell-based
[2] = system: SARS-CoV-2 (HCoV-19/Russia/Moscow-PMVL-12/2020, EPI_ SL_572398); assay type: cell-based; details: CC50/IC50, SARS-CoV-2 in Vero E6 cells

Compound | SI (HSV-1L2; HSV-1L2, CC50/IC50) | SI (HSV-2BH; HSV-2BH, CC50/IC50) | SI ([1]; CC50/IC50, IAV in MDCK cells) | also measured
2,4-bis-O-galloyl-1,3,6-tri-O-galloyl-β-D-glucose [R7] | 28 | 20 |  | 
Cc1cn([C@H]2C[C@H](N=[N+]=[N-])[C@@H](CO)O2)c(=O)[nH]c1=O [Azidothymidine, reference compound] |  |  |  | SI (HIV-1 (HIVIIIB)): 1800
O=C(O)P(=O)(O)O [Foscarnet, reference compound] | >8 | >16 |  | 
Nc1nc(O)c2ncn(COC(CO)CO)c2n1 [Ganciclovir, reference compound] |  |  |  | SI, Inhibition on EBV Replication (EBVB95-8; CC50/IC50): >10
O=C1O[C@H]2C3OC(=O)c4cc(O)c(O)c(O)c4-c4c(cc(O)c(O)c4O)C(=O)OC[C@H]2O[C@@H](OC(=O)c2cc(O)c(O)c(O)c2)[C@@H]3OC(=O)c2cc(O)c(O)c3c2[C@@H]2C1=CC(=O)[C@](O)(O3)C2(O)O [Geraniin, (1R,7R,26R,28S,29R,38R)-1,13,14,15,18,19,20,34,35,39,39-Undecahydroxy-2,5,10,23,31-pentaoxo-6,9,24,27,30,40-hexaoxaoctacyclo [34.3.1.0~4,38~.0~7,26~.0~8,29~.0~11,16~.0~17, 22~.0~32,37~]tetraconta-3,11,1 3,15,17,19,21,32,34,36-decaen-28-yl 3,4,5-trihydroxybenzoate] | 55 | 169 | 26 | SI [2]: 12.6; SI (HIV-1 (HIVIIIB)): 25.6
CC(C)(C)[C@H](NC(=O)C(F)(F)F)C(=O)N1C[C@H]2[C@@H]([C@H]1C(=O)N[C@H](C#N)C[C@@H]1CCNC1=O)C2(C)C [Nirmatrelvir, reference compound] |  |  |  | SI [2]: >200
CCOC(=O)C1=C[C@@H](OC(CC)CC)[C@H](NC(C)=O)[C@@H](N)C1 [Oseltamivir, reference compound] |  |  | >500 | 
O=C(OC[C@H]1O[C@@H](OC(=O)c2cc(O)c(O)c(O)c2)[C@H](OC(=O)c2cc(O)c(O)c(O)c2)[C@@H](OC(=O)c2cc(O)c(O)c(O)c2)[C@@H]1OC(=O)c1cc(O)c(O)c(O)c1)c1cc(O)c(O)c(O)c1 [R5, 1,2,3,4,6-penta-O-galloyl-β-D-glucose] |  |  |  | SI ([1]; ratio CC50 / IC50): 9.8; SI (HSV-1L2): 15; SI (HSV-2BH): 15; SI, Inhibition on EBV Replication (EBVB95-8): <8.5
O=C(OC[C@H]1O[C@@H](OC(=O)c2cc(O)c(O)c(O)c2)[C@H](OC(=O)c2cc(O)c(O)c(O)c2)[C@@H](OC(=O)c2cc(O)c(O)c(OC(=O)c3cc(O)c(O)c(O)c3)c2)[C@@H]1OC(=O)c1cc(O)c(O)c(O)c1)c1cc(O)c(O)c(O)c1 [R6, 3-bis-O-galloyl-1,2,4,6-tetra-O-galloyl-β-D-glucose] | 3 | 2 | <2 | 
O=C(OC[C@H]1O[C@@H](OC(=O)c2cc(O)c(O)c(O)c2)[C@H](OC(=O)c2cc(O)c(O)c(OC(=O)c3cc(O)c(O)c(O)c3)c2)[C@@H](OC(=O)c2cc(O)c(O)c(OC(=O)c3cc(O)c(O)c(O)c3)c2)[C@@H]1OC(=O)c1cc(O)c(O)c(OC(=O)c2cc(O)c(O)c(O)c2)c1)c1cc(O)c(O)c(O)c1 [R8, 2,3,4-bis-O-galloyl-1,6-di-O-galloyl-β-D-glucose] | 11 | 3 | 291.3 | 
